A mixed list of measured activities; the numbers were collected in NIAID ChemDB.

All rows: growth or infection tests; species: HIV-1; read-out: EC50

a–b is a range or a potency band. An empty or dashed field is not shown. ECn: concentration that inhibits the pathogen or its effect by n%. Lines come from different laboratories, so protocols vary.

structure,mutations,cell line,strain,conditions,value
CCOP(=O)(/C=C/n1cnc2c(=O)[nH]c(NC(C)=O)nc21)OCC,-,CEM + CEM-SS,IIIB,-,>200 µM
Nc1ccc(C[C@@H]2[C@H](O)[C@@H](O)[C@@H](Cc3ccc(N)cc3)N(Cc3cccc(C(=O)Nc4nc5ccccc5[nH]4)c3)C(=O)N2Cc2cccc(C(=O)Nc3nc4ccccc4[nH]3)c2)cc1,PR-I84V V82F,MT-2,RF,3 d,<0.076 µM
CCC[C@@H](c1ccc(C(F)(F)F)cc1)N1CCN(C2(C)CCN(C(=O)c3c(C)ncnc3C)CC2)C[C@@H]1C,-,PBMC,ADA-M Clinical isolates,-,<0.00003 µM
Nc1ccn([C@H]2CC[C@@H](CO)O2)c(=O)n1,-,MT-2,NL4-3,-,0.1 µM
CC(C)CN(C[C@@H](O)[C@H](Cc1ccccc1)NC(=O)O[C@H]1CCOC1)S(=O)(=O)c1ccc(N)cc1,L63P,PBMC,ERS104pre,-,0.0295 µM
CCOP(=O)(/C=C\n1cnc2c(N)ncnc21)OCC,-,CEM + CEM-SS,IIIB,-,>200 µM
CN(C)c1ccc(/C=C2\SC(N=Nc3c(O)[nH]c4ccccc34)=NC2=O)cc1,-,-,NL4-3,-,2.6 µM
Cc1cn([C@H]2C=C[C@@H](COP(=O)(SCCOC(=O)C(C)(C)C)SCCOC(=O)C(C)(C)C)O2)c(=O)[nH]c1=O,-,CEM + CEM-SS,-,-,0.0044 µM
Cc1cccc2c1OP(=O)(OC[C@H]1C[C@@H](n3cc(C)c(=O)[nH]c3=O)C[C@@H]1O)OC2,-,CEM + CEM/0,-,-,0.65 µM
COC(=O)N[C@H](C(=O)N[C@@H](Cc1ccccc1)[C@@H](O)CN(Cc1ccc(-c2ccccn2)cc1)NC(=O)[C@@H](NC(=O)OC)C(C)(C)C)C(C)(C)C,L10I I15V K20R L24I M36I M46L I54V I62V L63P K70Q V82A L89M,PBMC,Clinical isolate,"clinical isolate, multidrug-resistant",0.43 µM
C#C[C@]1(CO)O[C@@H](n2cnc3c(N)nc(F)nc32)C[C@@H]1O,-,-,WT,-,0.0002 µM
COc1ccc(S(=O)(=O)N(CC2CCCC2)C[C@@H](O)[C@H](Cc2ccccc2)NC(=O)O[C@H]2CCOC2)cc1,-,CEM + CEM-SS,IIIB,-,<0.023 µM
CC(C)(C)C(=O)OCCSP(=O)(OC[C@@H]1C=C[C@H](n2cnc3c(N)ncnc32)O1)SCCOC(=O)C(C)(C)C,-,CEM + CEM-SS,-,-,0.00012 µM
CC(C)=CCN1Cc2cccc3[nH]c(=S)n(c23)C[C@@H]1C,-,CEM,IIIB,-,0.09 µM
COc1ccc(S(=O)(=O)N(CC(C)C)C[C@@H](O)[C@H](Cc2ccccc2)NC(=O)O[C@H]2CO[C@H]3OCC(F)(F)[C@H]32)cc1,L10I K14R L33I M36I M46I F53I K55R I62V L63P A71V G73S V82A L90M I93L,PBMC,Clinical isolate,"clinical isolate, multidrug-resistant",0.014 µM
CCOP(=O)(/C=C/n1ccc(N)nc1=O)OCC,-,CEM + CEM-SS,IIIB,-,>200 µM
CN(C)c1ccc(C[C@@H]2[C@H](O)[C@@H](O)[C@@H](Cc3ccc(N(C)C)cc3)N(Cc3cccc(C(=O)Nc4nc5ccccc5[nH]4)c3)C(=O)N2Cc2cccc(C(=O)Nc3nc4ccccc4[nH]3)c2)cc1,PR-I84V,MT-2,RF,3 d,<0.008 µM
CC1CNC(=O)c2ccccc2SSc2ccccc2C(=O)N1,-,PBMC,IIIB,-,1.8–6.5 µg/mL
CC(C)C[C@@H]1[C@H](O)[C@@H](O)[C@@H](Cc2ccccc2)N(Cc2cccc(C(=O)Nc3nc4ccccc4[nH]3)c2)C(=O)N1Cc1cccc(C(=O)Nc2nc3ccccc3[nH]2)c1,-,MT-2,RF,3 d,<0.01 µM
CC(C)=CCN1Cc2cc(Cl)cc3[nH]c(=S)n(c23)C[C@@H]1C,RT-K70R,MT-4,-,-,<1.5 µM
Cc1cn([C@H]2C[C@H](N=[N+]=[N-])[C@@H](CO)O2)c(=O)[nH]c1=O,-,MT-4,IIIB,-,0.01 µM
Cc1cn([C@@H]2CC[C@H](O)[C@H]2CO)c(=O)[nH]c1=O,-,CEM + CEM/0,-,-,190 µM
Cc1cn([C@@H]2O[C@H](CO[Si](C)(C)C(C)(C)C)C3(OS(=O)(=O)C=C3N)[C@H]2O[Si](C)(C)C(C)(C)C)c(=O)n(C)c1=O,-,CEM,IIIB,-,0.05 µM
Nc1ccn(/C=C/P(=O)(O)O)c(=O)n1,-,CEM + CEM-SS,IIIB,-,>200 µM
CC[C@@H](c1ccc(C(F)(F)F)cc1)N1CCN(C2(C)CCN(C(=O)c3c(C)ncnc3C)CC2)C[C@@H]1C,-,PBMC,JRFL Clinical isolates,-,<0.019 µM
CC(C)(C)NC(=O)[C@@H]1C[C@@H]2CCCC[C@@H]2CN1C[C@@H](O)[C@H](Cc1ccccc1)NC(=O)[C@H](CC(N)=O)NC(=O)c1ccc2ccccc2n1,-,CEM + CEM-SS,IIIB,-,<0.022 µM
CC(C)C[C@@H]1[C@H](O)[C@@H](O)[C@@H](CC(C)C)N(Cc2cccc(C(=O)Nc3nc4ccccc4[nH]3)c2)C(=O)N1Cc1cccc(C(=O)Nc2nc3ccccc3[nH]2)c1,PR-I84V V82F,MT-2,RF,3 d,<0.012 µM
O=c1[nH]c(=O)n(/C=C/P(=O)(O)O)cc1F,-,CEM + CEM-SS,IIIB,-,>200 µM
Cc1cccc2c1OP(=O)(OC[C@H]1[C@H](n3cc(C)c(=O)[nH]c3=O)CC[C@@H]1O)OC2,-,CEM + CEM/0,-,-,80 µM
CC(C)CN(C[C@@H](O)[C@H](Cc1ccccc1)NC(=O)O[C@H]1CO[C@H]2OCC[C@H]21)S(=O)(=O)c1ccc(C(N)=O)cc1,-,MT-2,LAI,-,0.093 µM

2 of the rows above, restated:

structure,mutations,cell line,strain,conditions,value
CC(C)CN(C[C@@H](O)[C@H](Cc1ccccc1)NC(=O)O[C@H]1CCOC1)S(=O)(=O)c1ccc(N)cc1,L63P,PBMC,ERS104pre,-,0.0295 µM
COc1ccc(S(=O)(=O)N(CC(C)C)C[C@@H](O)[C@H](Cc2ccccc2)NC(=O)O[C@H]2CO[C@H]3OCC(F)(F)[C@H]32)cc1,L10I K14R L33I M36I M46I F53I K55R I62V L63P A71V G73S V82A L90M I93L,PBMC,Clinical isolate,"clinical isolate, multidrug-resistant",0.014 µM